Anti-infective test results gathered from many reports (values: NIAID ChemDB through PubChem).

Shared fields: cytotoxicity tests; measure: CC50

CCn is the concentration with n% toxicity to the cells.

{"SMILES": "COc1cc([C@@H]2c3cc4c(cc3[C@H](OC(C)=O)[C@@H]3COC(=O)[C@@H]23)OCO4)cc2nc3ccccc3nc12", "cells": "P-388", "result": "1 µM"}
{"SMILES": "OC[C@@H]1CC[C@H](n2cnc3c(NC4CCCCCC4)nc(Cl)nc32)O1", "cells": "Sheep chondrocytes G81092", "result": "125 µM"}
{"SMILES": "Nc1ccccc1Nc1c([N+](=O)[O-])cc(C(F)(F)F)cc1[N+](=O)[O-]", "cells": "VERO", "result": "36 µg/mL"}
{"SMILES": "CC(=O)c1cc(O)c(O)c(=O)cc1C", "cells": "HepDES19", "method": "MTS", "setting": "3 d", "result": "25 µM"}
{"SMILES": "O=C(c1ccc([N+](=O)[O-])cc1[N+](=O)[O-])N(N=CC=Cc1ccccc1)c1nnc(-c2ccccc2)c(-c2ccccc2)n1", "cells": "VERO", "result": "27 µg/mL"}
{"SMILES": "COc1cc([C@@H]2c3cc4c(cc3[C@H](OC(C)=O)[C@@H]3COC(=O)[C@@H]23)OCO4)cc(OC(C)=O)c1OC(C)=O", "cells": "MEL-28", "result": "2.2 µM"}
{"SMILES": "CC1(C)OCC([C@H]2O[C@@H]3OC(C)(C)O[C@@H]3/C2=N/NC(=O)c2cc3cc(OCc4ccccc4)ccc3[nH]2)O1", "cells": "VERO", "result": "5.9 µg/mL"}
{"SMILES": "Nc1ccccc1O[C@@H]1O[C@H](C(=O)O)[C@@H](O)[C@H](O)[C@H]1O", "cells": "HeLa", "result": ">200 µg/mL"}
{"SMILES": "COc1cc([C@@H]2c3cc4c(cc3[C@H](O)[C@H]3COC(=O)[C@H]23)OCO4)cc(OC)c1OC", "cells": "HT-29", "result": "0.012 µM"}
{"SMILES": "CCN(CC)CC[n+]1ccc2c(C)c3[nH]c4ccccc4c3c(C)c2c1", "cells": "VERO", "result": ">10 µg/mL"}
{"SMILES": "Nc1nc(Cl)nc2c1ncn2[C@H]1CC[C@@H](CO)O1", "cells": "MDBK", "result": "<50 µM"}
{"SMILES": "CO[C@H]1/C=C/O[C@@]2(C)Oc3c(C)c(O)c4c(O)c(c(/C=N/N5CCCCCCCCCCCC5)c(O)c4c3C2=O)NC(=O)/C(C)=C\\C=C\\[C@H](C)[C@H](O)[C@@H](C)[C@@H](O)[C@@H](C)[C@H](OC(C)=O)[C@@H]1C", "cells": "VERO", "result": "8.67 µg/mL"}
{"SMILES": "Nc1ncnc2c1ncn2C[C@@H](CO)OCP(=O)(O)O", "cells": "U87MG", "result": "13 µg/mL"}
{"SMILES": "O=C(N=Nc1c(Cl)c(O)c2ccccc2c1O)c1ccccc1O", "cells": "VERO", "result": "1.24 µg/mL"}
{"SMILES": "O=C1C[C@@H](c2ccc(O)cc2)Oc2cc(O)c(-c3c(O)cc4c(c3O)C(=O)C[C@@H](c3ccc(O)cc3)O4)c(O)c21", "cells": "MA-104", "method": "visual reading", "result": "~13 µg/mL"}
{"SMILES": "COc1cc([C@@H]2c3cc4c(cc3[C@H](OC(C)=O)[C@@H]3COC(=O)[C@@H]23)OCO4)cc2nc3cc(C)c(C)cc3nc12", "cells": "A549", "result": "4.8 µM"}
{"SMILES": "O=c1[nH]c(=O)n([C@H]2C[C@H](O)[C@@H](CO)O2)cc1/C=C/Br", "cells": "U87MG", "result": "185 µg/mL"}
{"SMILES": "CCCCC[C@H](O)/C=C/C1[C@H](O)CC(=O)[C@@H]1CCCCCCC(=O)O", "cells": "HeLa", "result": "1.5 µg/mL"}
{"SMILES": "O=c1cc(-c2ccc(Oc3c(O)cc4oc(-c5ccc(O)cc5)cc(=O)c4c3O)cc2)oc2cc(O)cc(O)c12", "cells": "MA-104", "method": "visual reading", "result": "1 µg/mL"}
{"SMILES": "Nc1ccnc2c1ncn2[C@@H]1O[C@H](CO)C[C@H]1O", "cells": "MDBK", "result": "260 µM"}
{"SMILES": "O=[n+]1c2ccccc2n([O-])c2cc(Br)ccc21", "cells": "VERO", "result": "0.49 µg/mL"}
{"SMILES": "OC[C@@H]1C[C@@H](O)[C@H](n2cnc3c(NC4CCCCC4)nc(Cl)cc32)O1", "cells": "Sheep chondrocytes G81092", "method": "MTT", "result": "270 µM"}
{"SMILES": "COC(=O)[C@@H]1[C@H](c2cc(OC)c(OC(C)=O)c(OC(C)=O)c2)c2cc3c(cc2C2=NOC[C@@H]21)OCO3", "cells": "P-388", "result": "20 µM"}
{"SMILES": "C[C@H](CCC(=O)NCCS(=O)(=O)O)[C@H]1CC[C@H]2[C@@H]3[C@H](O)C[C@@H]4C[C@H](O)CC[C@]4(C)[C@H]3C[C@H](O)[C@]12C", "cells": "HeLa", "result": ">200 µg/mL"}
{"SMILES": "COC1=CC([C@@H]2c3cc4c(cc3[C@H](O)[C@@H]3COC(=O)[C@H]32)OCO4)=CC(=O)C1=O", "cells": "MEL-28", "result": "1.3 µM"}
{"SMILES": "NNC(=O)c1nc(N)n[nH]1", "cells": "VERO", "result": "8.6 µg/mL"}
{"SMILES": "COc1ccc(-c2cc(=O)c3c(OC)cc(OC)c([C@H]4C(=O)c5c(OC)cc(OC)cc5O[C@@H]4c4ccc(OC)cc4)c3o2)cc1", "cells": "MDCK", "method": "neutral red", "result": "~100 µg/mL"}
{"SMILES": "COC(=O)[C@H]1[C@@H]2CON=C2c2cc3c(cc2[C@H]1C1=CC(=O)C(=O)C(OC)=C1)OCO3", "cells": "HT-29", "result": "12 µM"}
{"SMILES": "CO[C@H]1/C=C/O[C@@]2(C)Oc3c(C)c(O)c4c(O)c(c(C5SCCS5)c(O)c4c3C2=O)NC(=O)/C(C)=C\\C=C\\[C@H](C)[C@@H]2OC(C)(C)O[C@@H]([C@@H](C)[C@H](OC(C)=O)[C@@H]1C)[C@@H]2C", "cells": "VERO", "result": "12.43 µg/mL"}
{"SMILES": "Nc1ncnc2c1ncn2[C@H]1C[C@H](O)[C@@H](CO)O1", "cells": "Sheep chondrocytes G81092", "result": ">400 µM"}
{"SMILES": "CN1CSC(=S)N(C)C1", "cells": "VERO", "result": "<2.06 µg/mL"}
{"SMILES": "COC(=O)[C@@H]1[C@H](c2cc(OC)c3nc4ccccc4nc3c2)c2cc3c(cc2C2=NOC[C@@H]21)OCO3", "cells": "HT-29", "result": "10 µM"}
{"SMILES": "Nc1nc(Cl)nc2c1ncn2[C@H]1C[C@H](O)[C@@H](CO)O1", "cells": "Sheep chondrocytes G81092", "method": "MTT", "result": "<50 µM"}
{"SMILES": "CO[C@H]1C[C@H](O[C@H]2[C@@H](C)[C@@H](O[C@@H]3O[C@@H](C)C[C@H](N(C)C)[C@H]3O)[C@H](C)C[C@@]3(CO3)C(=O)[C@H](C)[C@H](O)[C@@H](C)[C@H](C)OC(=O)[C@H]2C)O[C@@H](C)[C@@H]1O", "cells": "HeLa", "result": "200 µg/mL"}
{"SMILES": "CCCCN(C)CCNc1cc(C)nc(Nc2nc3ccc(Cl)cc3[nH]2)n1", "cells": "VERO", "result": "1.89 µg/mL"}
{"SMILES": "CCC(=O)O[C@@H]1CC(=O)O[C@H](C)C/C=C/C=C/[C@H](O[C@H]2CC[C@H](N(C)C)[C@H](C)O2)[C@H](C)C[C@H](CC=O)[C@H](O[C@@H]2O[C@H](C)[C@@H](O[C@H]3C[C@@](C)(O)[C@@H](O)[C@H](C)O3)[C@H](N(C)C)[C@H]2O)[C@H]1OC", "cells": "HeLa", "result": ">100 µg/mL"}
{"SMILES": "Cc1nn(C(=O)c2ccncc2)c(-c2ccccc2)c1N=Nc1nc2ccc([N+](=O)[O-])cc2s1", "cells": "VERO", "result": ">10 µg/mL"}
{"SMILES": "OC[C@@H]1CC[C@H](n2cnc3c(NC4CC4)nc(Cl)nc32)O1", "cells": "Sheep chondrocytes G81092", "method": "MTT", "result": "180 µM"}
{"SMILES": "Cc1ccc(Nc2nc3c(s2)C(=O)c2ccccc2C3=O)cc1", "cells": "VERO", "result": "2.4 µg/mL"}
{"SMILES": "OC[C@H]1O[C@@H](n2cnc3c(NC4CC4)cc(Cl)nc32)C[C@@H]1O", "cells": "Sheep chondrocytes G81092", "method": "MTT", "result": "236 µM"}
{"SMILES": "CN1C(=O)C2(C)SSC1(C)C(=O)N2C", "cells": "VERO", "result": "38.79 µg/mL"}
{"SMILES": "COC1=CC([C@@H]2c3cc4c(cc3[C@H](OC(C)=O)[C@@H]3COC(=O)[C@H]32)OCO4)=CC(=O)C1=O", "cells": "MEL-28", "result": "0.59 µM"}
{"SMILES": "OC[C@H]1O[C@@H](n2cnc3c(NC4CC4)nc(Cl)nc32)[C@H](O)[C@@H]1O", "cells": "Sheep chondrocytes G81092", "result": "225 µM"}

Repeating the final 4 entries:

SMILES	cells	method	setting	result
OC[C@H]1O[C@@H](n2cnc3c(NC4CC4)cc(Cl)nc32)C[C@@H]1O	Sheep chondrocytes G81092	MTT	-	236 µM
CN1C(=O)C2(C)SSC1(C)C(=O)N2C	VERO	-	-	38.79 µg/mL
COC1=CC([C@@H]2c3cc4c(cc3[C@H](OC(C)=O)[C@@H]3COC(=O)[C@H]32)OCO4)=CC(=O)C1=O	MEL-28	-	-	0.59 µM
OC[C@H]1O[C@@H](n2cnc3c(NC4CC4)nc(Cl)nc32)[C@H](O)[C@@H]1O	Sheep chondrocytes G81092	-	-	225 µM

Neighbouring rows are from separate reports. Blank or dashed fields: not listed here.